Results of unrelated studies side by side (data: NIAID ChemDB).

All rows: growth or infection tests; agent: Poliovirus; read-out: EC50

a–b is a range or a potency band. Rows are shuffled and stem from different studies. ECn: concentration that inhibits the pathogen or its effect by n%. An empty or dashed field is not shown.

structure	cell line	strain or isolate	result
NC(=S)c1cncc([C@@H]2O[C@H](CO)[C@@H](O)[C@@H]2O)c1	HeLa		≥100 µg/mL
Cc1ccc(C(=O)CCCCOc2ccc(C3=N[C@@H](C)CO3)cc2)s1	VERO	TYPE 1	>28.01 µM
CC(N)c1ccc2c(c1)Sc1ccccc1O2	BSC-1	TYPE 3	10 µg/mL
Clc1ccc(C2COc3ccc(Cl)cc3C2)cc1	HEP-2	IB (TYPE 2)	>10 µM
Cc1ccc(C(=O)CCCCCCOc2ccc(C3=NCCO3)cc2)s1	VERO	TYPE 1	>26.95 µM
Clc1ccc2c(c1)C=C(c1ccc(Br)cc1)CO2	HEP-2	IA (TYPE 2)	>10 µM
N#Cc1cncc([C@H]2O[C@H](CO)[C@H](O)[C@@H]2O)c1	HeLa		≥100 µg/mL
c1ccc(C2COc3ccccc3C2)cc1	HEP-2	TYPE 2	>10 µM
Cc1ccc(C(=O)CCCCCCOc2ccc(C3=N[C@H](C)CO3)cc2)s1	VERO	TYPE 2	>25.97 µM
OC[C@H]1O[C@H](c2cncc(Br)c2)[C@@H](O)[C@@H]1O	HeLa		≥100 µg/mL
Cc1ccc(C(=O)CCCCCCOc2ccc(C3=NC(C)(C)CO3)cc2)s1	VERO	TYPE 3	4.93 µM
CC(=O)c1ccc2c(c1)[S@@](=O)c1ccccc1O2	BSC-1	TYPE 3	>10 µg/mL
N#Cc1cncc([C@@H]2O[C@H](CO)[C@H](O)[C@@H]2O)c1	HeLa		≥100 µg/mL
Cc1ccc(C(=O)CCCCOc2ccc(C3=NCC(C)O3)cc2)s1	VERO	TYPE 3	1.54 µM
OC[C@H]1O[C@@H](c2cncc(Br)c2)[C@@H](O)[C@@H]1O	HeLa		≥100 µg/mL
CC(OC(=O)Nc1ccc2ccccc2c1)c1ccc2c(c1)Sc1ccccc1O2	BSC-1	TYPE 3	>10 µg/mL
NC(=S)c1cncc([C@H]2O[C@H](CO)[C@@H](O)[C@@H]2O)c1	HeLa		≥100 µg/mL
Clc1ccc(C2=Cc3cc(Cl)ccc3OC2)cc1	HEP-2	SABIN (TYPE 2)	>10 µM
Cc1ccc(C(=O)CCCCOc2ccc(C3=NCCO3)cc2)s1	VERO	TYPE 2	0.78 µM
Cc1cn([C@@H]2OCC(CO)=C2F)c(=O)[nH]c1=O			>100 µg/mL
C/C(=N\O)c1ccc2c(c1)Sc1ccccc1O2	BSC-1	TYPE 3	0.4–2 µg/mL
N#Cc1cncc([C@@H]2O[C@H](CO)[C@@H](O)[C@@H]2O)c1	HeLa		≥100 µg/mL
C1=C(c2ccccc2)COc2ccccc21	HEP-2	SABIN (TYPE 2)	<10 µM
CC(=O)c1ccc2c(c1)Sc1ccccc1O2	BSC-1	TYPE 3	<0.4 µg/mL
CCC1COC(c2ccc(OCCCCC(=O)c3ccc(C)s3)cc2)=N1	VERO	TYPE 2	>26.95 µM

A second listing of 3 rows from above:

structure,cell line,strain or isolate,result
OC[C@H]1O[C@H](c2cncc(Br)c2)[C@@H](O)[C@@H]1O,HeLa,,≥100 µg/mL
N#Cc1cncc([C@H]2O[C@H](CO)[C@H](O)[C@@H]2O)c1,HeLa,,≥100 µg/mL
CC(OC(=O)Nc1ccc2ccccc2c1)c1ccc2c(c1)Sc1ccccc1O2,BSC-1,TYPE 3,>10 µg/mL